Construct, isoform or probe ends are uncertain for at least one entry.

These results are taken from article PMC11335895.

The data set concerns the target H-NS (Acinetobacter baumannii AB5075) (UniProt V5VHH2). As to the kind of experiment: EMSA. The following applies: EMSA: 40 mM Tris-acetate pH 7.9, 10 mM MgCl2, 100 mM KCl, 37 C 10 min, 5% polyacrylamide gel, recombinant protein, probe letters rebuilt from the primers and the genome.

With “AGGGTATCTATATCAGCCAAAATAGCCAGATATTTTGGATACTGGTGGGTAGTATTAATTTCTTTGAAAAAATTGGTAATTCATATGAGCTATTAAAGTTAAGAACTACAATTTTTGAGAAAATAAAATTTAGGTTGAATAAACTTCTCTTGGTCTGAGCCATTACAAGAACCAAAAATAATTACTTGTAATTTTTATCTAAAGCCATGTTTAAGCAAAAAATATAGAAAAGTTATGGTTATGTAGGGAAAGCATGTTTTTTAGTGCTAAGGAAGCATTAAATTAATTTTAAAAAAATATGATAGGTAGACAGATTAGTCTTGACAATTTTATGGACTTTATGTAGAGCCTGTCTTTTTGTAAAGTGGGCTGAATCGATACTAATCAAATAGGATTAACTTAGATGCTATTTATGATTAAATATTCTTAAGAAAATGTTTCATAATGCCTAATCTCATGATATTTAAATCAATTTTTAATTTAGTTTAATTTTTAAATAAACCAATAAAAATCAATCATTTATTTTTATTTACAAAAATTAACAATATTATTTTTTTATAAGAAAAACTTTATTAAGCTATATTTTATAGGCATCTTAACTATTGGCTTTTAGTTTAAGTTAATATGTTTTTTATATAAAATATGTTTATTTATATGTTAAACTGCGACTAAATTTTTTGAATATAAGGTTTTTATACTGATTTTTTAATATTCTAAAAATATTAACTTTTCGGTAAAGCCTTGAATAAATAAGAAAACAGAGGAATGAAAGTTGTGTTG (double strand) [T6SS regulatory DNA (prey)]”, the binding result reads like this: (6 uM H-NS with 1-10 uM H-NS-39, no impact on DNA binding) “binds”; (6 uM H-NS, herring sperm DNA competitor) “binds”.
